Pooled drug test results. Numbers come from NIAID ChemDB, via PubChem.

All rows: whole-cell or culture tests; species: Mycobacterium tuberculosis

An empty or dashed field is not shown. Inhibition is in % at the dose shown (toxicity tests: loss of growth or viability). MIC50, MIC90 and the like: level of inhibition, or share of isolates inhibited. MIC bound comes from a single tested concentration. Neighbouring rows are from separate reports. ECn is the concentration giving n% inhibition of infection, replication or growth. a–b is a range or a potency band.

smiles,dose,mutations,read-out,method,strain,cell line,value
COc1cc(OC2OC(CO)C(O)C(O)C2O)c2c(=O)c3c(O)ccc(O)c3oc2c1,,,MIC,,,,200 µg/mL
NNC(=O)Cc1csc2ccccc12,,,MIC bound,BACTEC,H37Rv,,>12.5 µg/mL
COC(=O)c1cnc(C(=O)c2ccccc2O)cn1,,,EC50,resazurin,H37Rv,,<6.25 µg/mL
CC[C@H]1OC(=O)[C@H](C)[C@@H](O[C@H]2C[C@@](C)(OC)[C@@H](O)[C@H](C)O2)[C@H](C)[C@@H](O[C@@H]2O[C@H](C)C[C@H](N(C)C)[C@H]2O)[C@](C)(OC)C[C@@H](C)C(=O)[C@H](C)[C@@H](O)[C@]1(C)O,,,MIC,,H37Rv,,4–16 µg/mL
COc1cc(O)c2c(=O)c3cc(OC4OC(CO)C(O)C(O)C4O)c(O)c(OC)c3oc2c1,,,MIC,,,,100 µg/mL
O=[N+]([O-])c1cn2c(n1)OC[C@@H](OCc1ccc(OCc3ccccc3)cc1)C2,,,MIC,,H37Rv-14A1 (PA-824-resistant),,>100 µM
CO[C@H]1/C=C/O[C@@]2(C)Oc3c(C)c(O)c4c(O)c(c5c(c4c3C2=O)NC2(CCN(CC(C)C)CC2)N=5)=NC(=O)/C(C)=C\C=C\[C@H](C)[C@H](O)[C@@H](C)[C@@H](O)[C@@H](C)[C@H](OC(C)=O)[C@@H]1C,,,MIC,,S-2M (susceptible),,0.05 µg/mL
COc1ccc(C2c3ccccc3C3(O)CC2CC(=O)O3)cc1,,,MIC,BACTEC,H37Rv,,≥12.5 µg/mL
COC(=O)c1sc(-c2ccncc2)nc1OCc1cnnn1-c1cc2ccc(O)cc2oc1=O,,,MIC,resazurin,H37Rv,,26.18 µM
COc1c(N2CCNC(C)C2)c(F)cc2c(=O)c(C(=O)O)cn(C3CC3)c12,,,MIC90,,11 strains,,0.25 µg/mL
NNC(=O)c1ccncc1,,,MIC,,Isolate 2225,,>4 µg/mL
C[C@H](O)[C@H]1C(=O)N2C(C(=O)O)=C(S[C@@H]3CN[C@H](C(=O)Nc4cccc(C(=O)O)c4)C3)[C@H](C)[C@H]12,,,MIC90,luminescence,H37Rv,THP-1,>50 µM
O=C(O)c1cn(C2CC2)c2cc(N3CCN(C/C(=N/OCc4ccccc4)c4ccco4)CC3)c(F)cc2c1=O,6.25 µg/mL,,inhibition,,H37Rv,,74%
COc1ccc(S(=O)(=O)[O-])cc1N=N/C(=N\Nc1cc(S(=O)(=O)[O-])ccc1OC)C(=O)Nc1ccccc1.[Na+].[Na+],,,MIC bound,BACTEC,H37Rv,,>12.5 µg/mL
CC(C)N=c1cc2n(-c3ccc(Cl)cc3)c3ccccc3nc-2cc1Nc1ccc(Cl)cc1,,,MIC,,H37Rv,,0.1 µg/mL
NNC(=O)c1cccc2ccccc12,,,MIC,,BCG,,80 µg/mL
NC(=O)c1cnc(C(=O)c2ccccc2O)cn1,6.25 µg/mL,,inhibition,resazurin,H37Rv,,2%
NNC(=O)c1ccncc1,,,MIC,,90-0233 (isoniazid streptomycin-resistant),,2.5 µg/mL
CCOC(=O)c1cc(Cl)cc2c(=O)c3c([nH]c12)C(=O)c1c([nH]c2c(C(=O)OCC)cc(Cl)cc2c1=O)C3=O,12.5 µg/mL,,inhibition,BACTEC,H37Rv,,8%
O=c1cc(-c2ccccc2)c2cc(Cl)ccc2o1,,Kanamycin-resistant,MIC90,resazurin,,,>100 µg/mL
CC[C@H]1OC(=O)[C@H](C)[C@@H](O[C@H]2C[C@@](C)(OC)[C@@H](O)[C@H](C)O2)[C@H](C)[C@@H](O[C@@H]2O[C@H](C)C[C@H](N(C)C)[C@H]2O)[C@](C)(OC)C[C@@H](C)C(=O)[C@H](C)[C@@H](O)[C@]1(C)O,,,MIC,,MDR-22 (MDR),,>8 µg/mL
Nc1ccc2cc(-n3nncc3COc3nc(-c4ccccn4)sc3C(=O)O)c(=O)oc2c1,,,MIC,resazurin,H37Rv,,13.5 µM
CO[C@H]1/C=C/O[C@@]2(C)Oc3c(C)c(O)c4c(O)c(c(/C=N/N5CCN(C)CC5)c(O)c4c3C2=O)NC(=O)/C(C)=C\C=C\[C@H](C)[C@H](O)[C@@H](C)[C@@H](O)[C@@H](C)[C@H](OC(C)=O)[C@@H]1C,,,MIC,,H37Rv,,0.026 µg/mL
N#Cc1c(-c2ccc(Cl)cc2)n([O-])c2cc(Cl)c(Cl)cc2[n+]1=O,,,MIC,,H37Rv,,0.2 µg/mL
CC1CNC(=O)C(=O)N1,12.5 µg/mL,,inhibition,BACTEC,H37Rv,,7%
NC(=S)c1cnc(C(=O)c2ccccc2O)cn1,6.25 µg/mL,,inhibition,resazurin,H37Rv,,60%
COC(=O)c1sc(-c2ccncc2)nc1OCc1cnnn1-c1cc2ccc(N)cc2oc1=O,,,MIC,resazurin,H37Rv,,26.23 µM
CC(=O)NC[C@H]1CN(c2ccc(N3CCN(c4ccc([N+](=O)[O-])s4)CC3)c(F)c2)C(=O)O1,,,MIC,,PC,,0.25 µg/mL
CCCCCC1(C)Cn2cc([N+](=O)[O-])nc2O1,,,MIC,,H37Rv-T2 (PA-824-resistant),,3.2 µM
Cn1cc(NC(=O)Nc2cc(C(=O)Nc3cc(C(=O)Nc4cc(C(=O)Nc5ccc6cc(S(=O)(=O)O)cc(S(=O)(=O)O)c6c5)n(C)c4)n(C)c3)n(C)c2)cc1C(=O)Nc1cc(C(=O)Nc2cc(C(=O)Nc3ccc4cc(S(=O)(=O)O)cc(S(=O)(=O)O)c4c3)n(C)c2)n(C)c1,,,MIC bound,BACTEC,H37Rv,,>12.5 µg/mL
Nc1ccc2cc(-n3nncc3COc3nc(-c4ccncc4)sc3C=O)c(=O)oc2c1,,,MIC,resazurin,H37Rv,,27.99 µM
CO[C@H]1CCC[C@H]2C1=C(C(=O)O)N1C(=O)[C@H]([C@@H](C)O)[C@@H]21,,,MIC,MTT,H37Rv,,1.6 µM
NC(=O)C(=O)N/N=C/c1ccc2c(c1)CCC2,12.5 µg/mL,,inhibition,BACTEC,H37Rv,,18%
O=C(O)c1cc(C(F)(F)F)cc2c(=O)nc(N3CCN(C4CCCCC4)CC3)sc12,,,MIC,resazurin,H37Rv,,0.00075 µg/mL
O=C(N/N=C/C=C/c1ccccc1)c1ccncc1,,,MIC,,BCG,,0.06 µg/mL
CCn1cc(C(=O)O)c(=O)c2cc(F)c(N3CCN(C/C(=N/O)c4cccs4)CC3)cc21,6.25 µg/mL,,inhibition,,H37Rv,,1%
CO[C@H]1C[C@H](O[C@H]2CC[C@]3(C=O)[C@H]4CC[C@]5(C)[C@@H](C6=CC(=O)OC6)CC[C@]5(O)[C@@H]4CC[C@]3(O)C2)O[C@H](C)[C@H]1O[C@@H]1O[C@H](CO[C@@H]2O[C@H](CO)[C@@H](O)[C@H](O)[C@H]2O)[C@@H](O)[C@H](O)[C@H]1O,,,MIC,BACTEC,H37Rv,,≥128 µg/mL
O=C(O)/C=C/c1ccccc1,,,MIC,,H37Rv,,100 µg/mL
CC[C@@H](CO)NCCN[C@@H](CC)CO,,,MIC,,H37Rv,,3.465 µg/mL
CCCCCc1cc(O)cc2c1Oc1cc(O)cc(C(=O)CCCC)c1C(=O)O2,128 µg/mL,,inhibition,BACTEC,H37Rv,,100%
O=C(O)c1ccccc1O,20 µM,,inhibition,,7800,,0%
Cc1csc(C(C)(O)c2nnc(Nc3ncn(Cc4c(F)cccc4F)n3)s2)n1,,,MIC,,M103I,,>25 µM
COc1ccc(O)c2c(=O)c3c(O)cc(O)cc3oc12,,,MIC,,,,200 µg/mL
Cc1ccn2nc(S(=O)(=O)Nc3c(Br)ccc4cccnc34)nc2n1,,INH RIF resistant,MIC50,visual reading,M23,,0.5 µM
CC[C@@H](CO)NCCN[C@@H](CC)CO,,,MIC,MTT,H37Rv,,8 µM
COc1ccc(S(=O)(=O)c2ccccc2[N+](=O)[O-])cc1,12.5 µg/mL,,inhibition,BACTEC,H37Rv,,0%
C[C@]1(COc2ccc(N3CCC(Oc4ccc(OC(F)(F)F)cc4)CC3)cc2)Cn2cc([N+](=O)[O-])nc2O1,,,MIC,MTT,H37Rv,,0.01 µM
CCn1cc(C(=O)O)c(=O)c2cc(F)c(N3CCN(C/C(=N/OCc4ccccc4)c4cccs4)CC3)cc21,,,MIC,,H37Rv,,>6.25 µg/mL
NNC(=O)C[n+]1csc(N)n1,,,MIC,,BCG,,300 µg/mL
CCCN1CCN(c2nc(=O)c3cc(C(F)(F)F)cc(C(=O)O)c3s2)CC1,,,MIC,resazurin,H37Rv,,0.0037 µg/mL
CCN(CC)CNc1ccc(/C=N/NC(=O)c2ccncc2)cc1,,,MIC,,BCG,,0.08 µg/mL
NC(=S)N/N=C1/C(=O)N(c2ccc(Cl)cc2Cl)C(=O)C1C(=O)Nc1ccc(Cl)cc1Cl,,,MIC bound,BACTEC,H37Rv,,>12.8 µg/mL
CC[C@@H](CO)NCCN[C@@H](CC)CO,,,MIC,,90-0145 (DRUG-SUS),,1 µg/mL
O=C(O)c1cc(C(F)(F)F)cc2c(=O)nc(N3CCN(CC4CCCCC4)CC3)sc12,,,MIC99,resazurin,NTB1,,>100 µg/mL
Nc1[nH][nH]c(=O)c1N=Nc1ccccc1,,,MIC bound,BACTEC,H37Rv,,>12.5 µg/mL
Cc1csc([C@](C)(O)c2nnc(Nc3ccn(Cc4c(F)cccc4F)n3)s2)n1,,,MIC,,M103I,,>25 µg/mL
[N-]=[N+]=C1N=NC=C1C(N)=O,,,MIC,BACTEC,H37Rv,,≥12.5 µg/mL
CCn1cc(C(=O)O)c(=O)c2cc(F)c(N3CCN(CC(=O)c4ccco4)CC3)cc21,,,MIC,,H37Rv,,>6.25 µg/mL
CCN(CC)c1nc2c(s1)c1c(O)c3c(O)c(C)c4c(c32)C(=O)[C@@](C)(O/C=C/[C@H](OC)[C@@H](C)[C@@H](OC(C)=O)[C@H](C)[C@H](O)[C@H](C)[C@@H](O)[C@@H](C)/C=C/C=C(/C)C(=O)N1)O4,,,MBC,,3181-4,,0.5 µg/mL
CO[C@H]1/C=C/O[C@@]2(C)Oc3c(C)c(O)c4c(O)c(c(/C=N/N5CCN(C/C=C/c6ccccc6)CC5)c(O)c4c3C2=O)NC(=O)/C(C)=C\C=C\[C@H](C)[C@H](O)[C@@H](C)[C@@H](O)[C@@H](C)[C@H](OC(C)=O)[C@@H]1C,,,MBC,,H37Rv,,0.12 µg/mL
CCN1CCN(c2nc(=O)c3cc(C(F)(F)F)cc(C(=O)O)c3s2)CC1,,,MIC,resazurin,H37Rv,,0.062 µg/mL
CN1C(=O)/C(=C2\SC(=O)N(CN3CCOCC3)C2=O)c2cc(Br)ccc21,,,MIC bound,BACTEC,H37Rv,,>12.5 µg/mL
Nc1ccc2cc(-n3nncc3COc3nc(-c4ccccc4)sc3C=O)c(=O)oc2c1,,,MIC,resazurin,H37Rv,,14.03 µM
O=C1NC(CN2CCCC(O)C2)C(=O)NC1CN1CCCC(O)C1,,,MIC,BACTEC,H37Rv,,≥12.5 µg/mL
O=c1c2c(O)cccc2oc2cc(O)cc(O)c12,,,MIC,,,,10 µg/mL
NC(=NC1CCC(C2CCC(N)CC2)CC1)C(N)=NC1CCC(C2CCC(N)CC2)CC1,,,MIC bound,resazurin,H37Rv,,>6.25 µg/mL
NC(=S)c1cnc(C(=O)c2ccc(O)cc2)cn1,,,EC50,resazurin,H37Rv,,>6.25 µg/mL
COC(=O)[C@@H]1c2cc3c(c(O)c2[C@@H](OC)C[C@@]1(C)O)C(=O)c1c(O)cc2c(c1C3=O)O[C@@H]1O[C@@]2(C)[C@H](O)[C@@H](N(C)C)[C@@H]1O,,,MIC bound,BACTEC,H37Rv,,≤12.5 µg/mL
CCOc1ccc2cc(-n3nncc3COc3nc(-c4ccccc4)sc3C=O)c(=O)oc2c1,,,MIC,resazurin,H37Rv,,26.34 µM
O=C1C=C(Nc2ccc(Cl)cc2C(=O)c2ccccc2)c2ccccc2C1=O,,,MIC bound,resazurin,H37Rv,,>6.25 µg/mL
O=C(O)c1cnc(C(=O)c2ccccc2O)cn1,6.25 µg/mL,,inhibition,resazurin,H37Rv,,4%
CCCCCC[N+]12CC=C3COC(=O)C(C)(O)C(C)(O)C(C)C(=O)OC(CC1)C32.[Br-],12.5 µg/mL,,inhibition,BACTEC,H37Rv,,18%
CO/N=C(\C)c1cccc(F)c1NS(=O)(=O)c1nc2c(F)cnc(OC)n2n1,,INH RIF resistant,MIC50,visual reading,X24,,1 µM
O=C(NC(=O)c1ccc(Cl)c(Cl)c1)Nc1ccc(Cl)cc1,,,MIC bound,BACTEC,H37Rv,,>12.5 µg/mL
CCCC/C=C/CNNC(=O)c1cccs1,,,MIC,,BCG,,3 µg/mL

Repeating the first 8 entries:

smiles	dose	mutations	read-out	method	strain	cell line	value
COc1cc(OC2OC(CO)C(O)C(O)C2O)c2c(=O)c3c(O)ccc(O)c3oc2c1			MIC				200 µg/mL
NNC(=O)Cc1csc2ccccc12			MIC bound	BACTEC	H37Rv		>12.5 µg/mL
COC(=O)c1cnc(C(=O)c2ccccc2O)cn1			EC50	resazurin	H37Rv		<6.25 µg/mL
CC[C@H]1OC(=O)[C@H](C)[C@@H](O[C@H]2C[C@@](C)(OC)[C@@H](O)[C@H](C)O2)[C@H](C)[C@@H](O[C@@H]2O[C@H](C)C[C@H](N(C)C)[C@H]2O)[C@](C)(OC)C[C@@H](C)C(=O)[C@H](C)[C@@H](O)[C@]1(C)O			MIC		H37Rv		4–16 µg/mL
COc1cc(O)c2c(=O)c3cc(OC4OC(CO)C(O)C(O)C4O)c(O)c(OC)c3oc2c1			MIC				100 µg/mL
O=[N+]([O-])c1cn2c(n1)OC[C@@H](OCc1ccc(OCc3ccccc3)cc1)C2			MIC		H37Rv-14A1 (PA-824-resistant)		>100 µM
CO[C@H]1/C=C/O[C@@]2(C)Oc3c(C)c(O)c4c(O)c(c5c(c4c3C2=O)NC2(CCN(CC(C)C)CC2)N=5)=NC(=O)/C(C)=C\C=C\[C@H](C)[C@H](O)[C@@H](C)[C@@H](O)[C@@H](C)[C@H](OC(C)=O)[C@@H]1C			MIC		S-2M (susceptible)		0.05 µg/mL
COc1ccc(C2c3ccccc3C3(O)CC2CC(=O)O3)cc1			MIC	BACTEC	H37Rv		≥12.5 µg/mL